This is a selection; strong and weak results do not stand in their true shares. Calls of active or inactive are those of the source. Rule as the data show it: active = inhibition above about 12%; inactive = the rest.
assay: reduced growth of AddAB-expressing E. coli cells – absorbance, AddAB inhibitor project, primary screen (AID 435030);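 also: 0% = vehicle wells of infected cells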; conditions: E. coli expressing H. pylori AddAB, at 11.9 µM, hits give high values

| SMILES | inhibition |
| --- | --- |
| COc1ccc(Cl)cc1C(=O)NCC1(N2CCOCC2)CCCCC1 | inactive: 1.79% |
| O=C(OC1CN2CCC1CC2)C1c2ccccc2Oc2ccccc21 (stereo not drawn) | inactive: -2.14% |
| N#CC1(Nc2ccccc2)CCN(Cc2ccccc2)CC1 | inactive: 0.97% |
| O=C(NCC1(N2CCCCC2)CCCCC1)c1ccc(Cl)s1 | inactive: 0.58% |
| CCOC(=O)N1CCC(Nc2ccc(OC)cc2)CC1 | inactive: -0.08% |
| Cc1cc(C)cc(N(C(=O)c2ccccc2)C2CCN(C(=O)OC(C)(C)C)CC2)c1 | inactive: -0.98% |
| O=C(NCC1(N2CCCCC2)CCCCC1)c1ccc(Cl)nc1 | inactive: -1.02% |
| O=C(NCC1(N2CCOCC2)CCCCC1)c1cc2ccccc2o1 | inactive: 2.7% |
| CSc1ccccc1C(=O)NCC1(N2CCCCC2)CCCCC1 | inactive: 0.25% |
| CC(C)(C)OC(=O)N1CCC(N(C(=O)c2ccccc2)c2ccc(F)cc2)CC1 | inactive: -1.62% |
| COc1ccc(C(=O)NCC2(N3CCCCC3)CCCCC2)c(OC)c1OC | inactive: -2.49% |
| COc1ccc(C(=O)NCC2(N3CCCCC3)CCCCC2)cc1 | inactive: 3.2% |
| O=C(NCC1(N2CCCCC2)CCCCC1)c1cccs1 | inactive: -1.71% |
| O=C(NCC1(N2CCCCC2)CCCCC1)c1ccc(=O)[nH]c1 | inactive: 4.32% |
| Cc1ccc(OCC(C)C)c(CN(CCCl)CCCl)c1 | inactive: -1.96% |
| CCOC(=O)N1CCC(Nc2cccc(C)c2)CC1 | inactive: 1.5% |
| COc1ccc(NC2CCN(CCc3ccccc3)CC2)c(OC)c1 | inactive: 0.09% |
| O=C(NCC1(N2CCCCC2)CCCCC1)c1ccc(F)cc1 | inactive: 4.68% |
| CCOc1ccc(C)cc1CN(CCCl)CCCl | inactive: 0.08% |
| O=C(NCC1(N2CCOCC2)CCCCC1)c1cc(=O)[nH]c2ccccc12 | inactive: 6.88% |
| COc1cc(C(=O)NCC2(N3CCCCC3)CCCCC2)ccc1OC(F)F | inactive: 4.74% |

| SMILES | inhibition |
| --- | --- |
| COc1ccc(NC2CCN(C(=O)OC(C)(C)C)CC2)cc1 | inactive: -0.85% |
| CN1CCN(CCOC(=O)C(O)(c2ccccc2)c2ccccc2)CC1 | inactive: 2.67% |
| O=C(NCC1(N2CCCCC2)CCCCC1)c1cccc(C(F)(F)F)c1 | inactive: 2.94% |
| N#CC1(Nc2ccccc2)CCN(CCc2ccccc2)CC1 | inactive: 1.44% |
| CCN1CCC(Nc2ccc(Cl)cc2)CC1 | inactive: 2.5% |
| O=C(NCC1(N2CCCCC2)CCCCC1)c1cccc([N+](=O)[O-])c1 | inactive: 2.84% |
| O=C(NCC1(N2CCCCC2)CCCCC1)c1ccc(OC(F)F)cc1 | inactive: 3.33% |
| O=C(NCC1(N2CCCCC2)CCCCC1)c1cncc(Br)c1 | inactive: 0.94% |
| CN1CCC(Nc2cccc(F)c2)CC1 | inactive: 0.94% |
| O=C(NCC1(N2CCOCC2)CCCCC1)c1cc(F)c(F)cc1Cl | inactive: -0.5% |
| COc1cc(OC)c(C(=O)NCC2(N(C)C)CCCCC2)cc1OC | inactive: 2.88% |
| CC(C)c1ccc(NC2CCN(C(=O)OC(C)(C)C)CC2)cc1 | inactive: 4.29% |
| CN(C)c1cccc(C(=O)NCC2(N3CCCCC3)CCCCC2)c1 | inactive: 2.2% |
| COc1ccc(CN(CCCl)CCCl)cc1Cl | inactive: 1.88% |
| O=C(OC1CN2CCC1CC2)C1c2ccccc2C=Cc2ccccc21 (stereo not drawn) | inactive: 1.12% |
| CCc1cc(C(=O)NCC2(N3CCCCC3)CCCCC2)sc1C | inactive: 1.72% |
| CCOC(=O)N1CCC(Nc2ccc(C)cc2)CC1 | inactive: 3.17% |
| N/C(=N\O)c1c(N)no[n+]1[O-] | inactive: 3.49% |
| COc1ccc(C(=O)NCC2(N3CCOCC3)CCCCC2)cc1OC | inactive: 2.15% |
| COc1cc(C(=O)NCC2(N3CCOCC3)CCCCC2)cc(OC)c1C | inactive: 1.17% |
| O=C(NCC1(N2CCOCC2)CCCCC1)c1cc(Br)ccc1Cl | inactive: 0.43% |

| SMILES | inhibition |
| --- | --- |
| CN(C)C1(CNC(=O)c2cccc(C#N)c2)CCCCC1 | inactive: 1.73% |
| CCCN1CCC(Nc2cc(OC)cc(OC)c2)CC1 | inactive: 4.17% |
| c1ccc(CN2CCC(Nc3ccccc3)CC2)cc1 | inactive: 3.93% |
| N#Cc1ccc(C(=O)NCC2(N3CCCCC3)CCCCC2)cc1 | inactive: 1.98% |
| CC(C)(C)OC(=O)N1CCC(N(C(=O)c2ccccc2)c2ccc(Cl)cc2)CC1 | inactive: -1.4% |
| CN(C)c1ccc(C(=O)NCC2(N3CCCCC3)CCCCC2)cc1 | inactive: 4.29% |
| O=C(NCC1(N2CCCCC2)CCCCC1)c1ccco1 | inactive: 3.19% |
| CCN1CCC(Nc2cccc(F)c2)CC1 | inactive: 5.14% |
| Fc1ccccc1NC1CCN(Cc2ccccc2)CC1 | inactive: 1.79% |
| Cc1ccc(C(=O)NCC2(N3CCCCC3)CCCCC2)o1 | inactive: -0.16% |
| COc1cc(OC)cc(C(=O)NCC2(N3CCCCC3)CCCCC2)c1 | inactive: 0% |
| CN1CCC(Nc2ccc(Cl)cc2)CC1 | inactive: 1.67% |
| CCCOc1ccc(C)cc1CN(CCCl)CCCl | inactive: -1.1% |
| COc1cccc(C(=O)N(c2cc(C)cc(C)c2)C2CCN(C(=O)OC(C)(C)C)CC2)c1 | inactive: 0.97% |
| COc1cc(OC)cc(C(=O)NCC2(N3CCOCC3)CCCCC2)c1 | inactive: 6.44% |
| CCC(CO)(C(=O)OC1CN2CCC1CC2)c1ccccc1 (stereo not drawn) | inactive: -2.54% |
| O=C(O)C1(Nc2ccccc2)CCN(Cc2ccccc2)CC1 | inactive: -0.25% |
| CC(C)(C)OC(=O)N1CCC(Nc2ccccc2)CC1 | inactive: 1.02% |
| CCCOc1ccc(C(=O)NCC2(N(C)C)CCCCC2)cc1 | inactive: -0.41% |
| CN1CCC(Nc2ccc(F)c(Cl)c2)CC1 | inactive: 2.17% |
| CCOc1ncccc1C(=O)NCC1(N2CCOCC2)CCCCC1 | inactive: 2.27% |

Source: PubChem BioAssay AID435030 (The Scripps Research Institute Molecular Screening Center, 2010)
